Results of unrelated studies side by side (data: NIAID ChemDB).

All rows: tests in culture; organism: Coxsackie virus; endpoint: EC50

Rows are shuffled and stem from different studies. ECn is the concentration giving n% inhibition of infection, replication or growth. Blank or dashed fields: not listed here.

| SMILES | strain or isolate | cell line | method | result |
|---|---|---|---|---|
| NC(=O)c1csc([C@@H]2O[C@H](CO)[C@@H](O)[C@H]2O)n1 | TYPE B1/HA201468 | HeLa | cytopathic effect | 130 µg/mL |
| CCO[C@@]12CC3=COC=CC(OC(C)=O)C3N1C(=O)[C@]1(S)CC3=COC=CC(OC(C)=O)C3N1C2=O | TYPE A21 | HeLa | - | 5.8 µg/mL |
| NC(=O)c1ncn([C@@H]2O[C@H](CO)[C@@H](O)[C@H]2O)n1 | TYPE B1 | HeLa | plaque count | >100 µg/mL |
| O=[N+]([O-])c1cc(C(F)(F)F)ccc1N1CC[N+]2(CC1)CC[N+]1(CCN(c3ccc(C(F)(F)F)cc3[N+](=O)[O-])CC1)CC2 | B3 | HeLa | cytopathic effect | >70 µg/mL |
| CC(=O)OC1C=COC=C2C[C@@]34NC(=S)S[C@]5(CC6=COC=CC(OC(C)=O)C6N5C3=O)C(=O)N4C21 | TYPE A21 | HeLa | - | 3 µg/mL |
| O=C1N(CCCCCOc2ccc(-c3ccc(Cl)cc3)cc2)CCN1c1ccncc1 | TYPE A24 | RD | plaque count | 1.3 µM |
| CCN=C1NC(=O)[C@H]([C@H](C)c2c[nH]c3ccccc23)S1 | TYPE B1 | HeLa | plaque count | 10 µg/mL |
| Nc1nccc2c1ncn2[C@@H]1C=C(CO)[C@@H](O)[C@H]1O | TYPE B4 | HeLa | cytopathic effect | >400 µg/mL |
| Nc1nccc2c1ncn2[C@@H]1O[C@H](CO)[C@@H](O)[C@H]1O | TYPE B4 | VERO | cytopathic effect | 10 µg/mL |
| Nc1nc(N)c2nnn(C[C@H]3CC[C@@H](CO)C3)c2n1 | TYPE B4 | HeLa | cytopathic effect | >200 µg/mL |
| CN1C(=O)[C@]23CC4=CC=C[C@H](O)[C@H]4N2C(=O)[C@@]1(CO)SS3 | TYPE A21 | HeLa | - | 0.003 µg/mL |
| CN(C)c1nsc(-c2ccccc2)c1C#N | TYPE B1 | HEP-2 | plaque count | >15 µg/mL |
| Nc1nc(N)c2ncn(C[C@H]3CC[C@@H](CO)C3)c2n1 | TYPE B4 | VERO | cytopathic effect | >200 µg/mL |
| Cc1cc(Cl)c([N+](=O)[O-])c(N2CC[N+]3(CC2)CC[N+]2(CCN(c4nc(C)cc(Cl)c4[N+](=O)[O-])CC2)CC3)n1 | B3 | HeLa | cytopathic effect | >70 µg/mL |
| CCOC(=O)OC1C=COC=C2C[C@@]34SS[C@]5(CC6=COC=CC(OC(=O)OCC)C6N5C3=O)C(=O)N4C21 | TYPE A21 | HeLa | - | 0.08 µg/mL |
| Nc1nc(N2CC[N+]3(CC2)CC[N+]2(CCN(c4nc(N)[nH]c(=O)c4[N+](=O)[O-])CC2)CC3)c([N+](=O)[O-])c(=O)[nH]1 | B3 | HeLa | cytopathic effect | >70 µg/mL |
| CSc1nsc(-c2ccccc2)c1C#N | TYPE B1 | HEP-2 | plaque count | >20 µg/mL |
| Nc1nccc2c1ncn2[C@@H]1C[C@H](CO)[C@@H](O)[C@H]1O | TYPE B4 | HeLa | cytopathic effect | >400 µg/mL |
| N#CCSc1nsc(-c2ccccc2)c1C#N | TYPE B1 | HEP-2 | plaque count | >10 µg/mL |
| O=C1C2CC3=COC=CC(O)C3N2C(=O)C2=CC3=COC=CC(O)C3N12 | TYPE A21 | HeLa | - | 0.00009 µg/mL |
| Nc1nccc2c1ncn2[C@@H]1C[C@H](CO)[C@@H](O)[C@H]1O | TYPE B4 | VERO | cytopathic effect | >100 µg/mL |
| Cc1nc(N2CC[N+]3(CC2)CC[N+]2(CCN(c4nc(C)nc5c4no[n+]5[O-])CC2)CC3)c2c(no[n+]2[O-])n1 | B3 | HeLa | cytopathic effect | >70 µg/mL |
| Nc1nc(Cl)c2nnn(C[C@H]3CC[C@@H](CO)C3)c2n1 | TYPE B4 | HeLa | cytopathic effect | >200 µg/mL |
| O=c1[nH]cnc(N2CC[N+]3(CC2)CC[N+]2(CCN(c4nc[nH]c(=O)c4[N+](=O)[O-])CC2)CC3)c1[N+](=O)[O-] | B3 | HeLa | cytopathic effect | >70 µg/mL |
| CC1(Cn2cnc3c(N)nc(Cl)nc32)CC1CO | TYPE B3 | - | - | 43.49 µg/mL |
| N#Cc1c(N2CCCC2)nsc1-c1ccccc1 | TYPE B1 | HEP-2 | plaque count | >7 µg/mL |
| O=C(CCCc1ccccc1)N1CC[N+]2(CC1)CC[N+]1(CCN(C(=O)CCCc3ccccc3)CC1)CC2 | B3 | HeLa | cytopathic effect | >70 µg/mL |

2 of the rows above, restated:

SMILES	strain or isolate	cell line	method	result
Nc1nccc2c1ncn2[C@@H]1C=C(CO)[C@@H](O)[C@H]1O	TYPE B4	HeLa	cytopathic effect	>400 µg/mL
O=c1[nH]cnc(N2CC[N+]3(CC2)CC[N+]2(CCN(c4nc[nH]c(=O)c4[N+](=O)[O-])CC2)CC3)c1[N+](=O)[O-]	B3	HeLa	cytopathic effect	>70 µg/mL